Compound potency records, mixed from different reports. Data source: NIAID ChemDB in PubChem.

All rows: whole-cell or culture tests; organism: Hepatitis C virus; read-out: EC50

Neighbouring rows are from separate reports. ECn: concentration that inhibits the pathogen or its effect by n%. Blank or dashed fields: not listed here.

SMILES	read by	cells	mutations	strain or isolate	result
O=C(O)c1cccc([As]=[As]c2cccc(C(=O)O)c2)c1	PCR	Huh7-1		JFH-1	2.6 µM
CNC(=O)c1c(-c2ccc(F)cc2)oc2cc(N(CCO)S(C)(=O)=O)c(C3CC3)cc12	luciferase	Huh7		2a	0.1564 µM
C[C@@]1(O)[C@H](O)[C@@H](CO)O[C@H]1n1cnc2c(N)ncnc21	luciferase / reporter gene	Huh7.5	Y93H+V153M+M202L+M265V	genotype 1b	0.0241 µM
C[C@@]1(O)[C@H](O)[C@@H](CO)O[C@H]1c1ccc2c(N)ncnn12	PCR	Huh7.5		GT3a	0.42 µM
CC(C)(C)OC(=O)N[C@@H]1CCCCC/C=C\[C@@H]2C[C@@]2(C(=O)NS(=O)(=O)C2CC2)NC(=O)[C@@H]2C[C@@H](OC(=O)N3Cc4cccc(F)c4C3)CN2C1=O	antigen	Huh7.5		JCH4	0.097 µM
CCCCn1cnc2c(c(CC#N)nn2-c2ccccc2)c1=N	PCR	Huh7-1		sg1a (H77)	10.1 µM
NC(=O)c1nn(Cc2ccc(N)cc2)c2ccccc12	fluorescence	Huh7.5.1		J399EM	>10 µM
CS(=O)(=O)Nc1ccc2c(c1)S(=O)(=O)N=C(C1=C(O)[C@@H]3[C@H]4CC[C@H](C4)[C@@H]3N(Cc3ccc(F)cc3)C1=O)N2	luciferase / replicon	Huh7		GT2a	>100 µM
CCC[C@H](NC(=O)[C@@H]1[C@H]2CCC[C@H]2CN1C(=O)[C@@H](NC(=O)[C@@H](NC(=O)c1cnccn1)C1CCCCC1)C(C)(C)C)C(=O)C(=O)NC1CC1	antigen	Huh7.5		J6	0.844 µM
CCC[C@H](NC(=O)[C@@H]1[C@H]2CCC[C@H]2CN1C(=O)[C@@H](NC(=O)[C@@H](NC(=O)c1cnccn1)C1CCCCC1)C(C)(C)C)C(=O)C(=O)NC1CC1	luciferase			1b WT	0.475 µM
CC1CCC(C(=O)N(c2cc(C#CC(C)(C)C)sc2C(=O)O)C2CCC(O)CC2)CC1	luciferase / replicon	Huh7		GT1b	0.0059 µM
Fc1ccccc1-c1nc2ccn(Cc3ccc(-c4ccc(C(F)(F)F)cc4C(F)(F)F)nn3)cc-2n1	luciferase	Huh7		4a	0.992 µM
Cc1cc(N2CCCCC2)nc2ccc(Cc3ccc4nc(N5CCCCC5)cc(C)c4c3)cc12	PCR	Huh7-1		sg2a (JFH)	5.4 µM
C[C@@]1(O)[C@H](O)[C@@H](CO)O[C@H]1n1cnc2c(N)ncnc21	luciferase	Huh7-Lunet		GT5a	0.095 µM
O=C1OC2(c3ccc(O)cc3Oc3cc(O)ccc32)c2c1c(-c1ccccc1)c(-c1ccccc1)c(-c1ccccc1)c2-c1ccccc1	PCR	Huh7-1		JFH-1	13.2 µM
C[C@@]1(O)[C@H](O)[C@@H](CO)O[C@H]1n1cnc2c(N)ncnc21	luciferase	Huh7		1a	0.3031 µM
COc1ccc(C(=O)Nc2cccc(Cn3nc(C(N)=O)c4ccccc43)c2)cc1	fluorescence	Huh7.5.1		J399EM	0.035 µM
CNC(=O)c1c(-c2ccc(F)cc2)oc2cc(N(CCO)S(C)(=O)=O)c(C3CC3)cc12	luciferase / replicon	Huh7		GT1b	0.0166 µM
NC(=O)c1nn(Cc2ccccc2NC(=O)c2ccccc2)c2ccccc12	fluorescence	Huh7.5.1		J399EM	1.7 µM
C[C@H](Br)C(=O)c1ccc2cc(Br)c3ccccc3c2c1	PCR	Huh7-1		sg2a (JFH)	12.2 µM
CC1CCC(C(=O)N(c2cc(C#CC(C)(C)C)sc2C(=O)O)C2CCC(O)CC2)CC1	luciferase	Huh7-Lunet		GT5a	0.013 µM
NC(=O)c1nn(Cc2ccccc2N)c2ccccc12	fluorescence	Huh7.5.1		J399EM	>10 µM

The first 3 rows once more:

SMILES,read by,cells,mutations,strain or isolate,result
O=C(O)c1cccc([As]=[As]c2cccc(C(=O)O)c2)c1,PCR,Huh7-1,,JFH-1,2.6 µM
CNC(=O)c1c(-c2ccc(F)cc2)oc2cc(N(CCO)S(C)(=O)=O)c(C3CC3)cc12,luciferase,Huh7,,2a,0.1564 µM
C[C@@]1(O)[C@H](O)[C@@H](CO)O[C@H]1n1cnc2c(N)ncnc21,luciferase / reporter gene,Huh7.5,Y93H+V153M+M202L+M265V,genotype 1b,0.0241 µM